Measured values from publication doi:10.1101/2024.04.02.587325.
The exact form of at least one protein or probe is not confirmed. At least one verdict was read from the data and is not stated in words by the source.

How the values were obtained:
[1] = biological target: MexR (Pseudomonas aeruginosa) (UniProt P52003); assay: SAXS; details: rigid-body models, ~30 degree DNA bend in linker (Model 3)
[2] = biological target: MexR (Pseudomonas aeruginosa) (UniProt P52003); assay: SEC-MALS-RI; details: complex 98 kDa, 4 MexR : 1 dsDNA

AAATGTGGTTGATCCAGTCAACTATTTTGCTTATTTTAGTTGACCTTATCAACCTTGTTT (double strand) [60 bp mexR-mexA operator DNA (PI+PII)]
binding result [1]: binds | binding result [2]: binds
